Pooled drug test results. Numbers come from NIAID ChemDB, via PubChem.

All rows: whole-cell or culture tests; species: Pneumocystis carinii

ECn is the concentration giving n% inhibition of infection, replication or growth. Inhibition is in % at the dose shown (toxicity tests: loss of growth or viability). An empty or dashed field is not shown. Neighbouring rows are from separate reports.

smiles	read-out	setting	cells	dose	result
C(=N\Nc1ccccc1)/c1ccc(N2CCN(c3ccc(/C=N/Nc4ccccc4)cc3)CC2)cc1	EC50	-	A549	-	>100 µg/mL
CC(C)Nc1cccnc1N1CCN(C(=O)c2cc3cc(NS(C)(=O)=O)ccc3[nH]2)CC1	EC50	-	-	-	>100 µg/mL
CC[C@@]1(O)C(=O)OCc2c1cc1n(c2=O)Cc2cc3ccccc3nc2-1	inhibition	7 d	-	100 µg/mL	56%
C[C@](O)(C1CCCCN1)C1CCC2C3CC[C@H]4C[C@@H](O)CC[C@]4(C)C3CC[C@@]21C	inhibition	-	-	10 µM	80%
O=C(O)CNCP(=O)(O)O	inhibition	7 d	-	10 µM	39%
Nc1ccc(S(=O)(=O)Nc2cc(Cl)cc(Cl)c2)cc1	inhibition	5 d	-	100 µM	51%
CCC[C@@H]1C[C@@H](C(=O)N[C@@H]([C@H]2O[C@H](SC)[C@H](O)[C@@H](O)[C@H]2O)[C@H](C)Cl)N(C)C1	inhibition	10 d	-	5 µg/mL	10%
N=C(N)c1ccc(OCCCCCOc2ccc(C(=N)N)cc2)cc1	EC50	-	-	-	0.29 µg/mL
O=c1[nH]cnc2c([C@@H]3O[C@H](CO)[C@@H](O)[C@H]3O)c[nH]c12	inhibition	-	-	1 µg/mL	25%
CCCCN=C(N)c1ccc(N2CCCN(c3ccc(C(N)=NCCCC)cc3)CC2)cc1	EC50	-	A549	-	0.186 µg/mL
CC1(C)S[C@@H]2[C@H](NC(=O)[C@H](N)c3ccccc3)C(=O)N2[C@H]1C(=O)O	EC50	-	-	-	10 µg/mL
N=C(N)c1ccc(NC(=O)CCCCC(=O)Nc2ccc(C(=N)N)cc2)cc1	EC50	-	A549	-	0.0009 µg/mL
Cc1ccnc2c1NC(=O)c1cccnc1N2C1CC1	EC50	-	-	-	>100 µg/mL
Nc1ccc(S(=O)(=O)Nc2cc(I)cc(I)c2)cc1	inhibition	5 d	-	100 µM	95%
N/C(=N\O)c1ccc(C(=O)Nc2ccc(NC(=O)c3ccc(/C(N)=N/O)cc3)cc2)cc1	EC50	-	A549	-	83.3 µg/mL

2 of the rows above, restated:

{"smiles": "Nc1ccc(S(=O)(=O)Nc2cc(I)cc(I)c2)cc1", "read-out": "inhibition", "setting": "5 d", "dose": "100 µM", "result": "95%"}
{"smiles": "Cc1ccnc2c1NC(=O)c1cccnc1N2C1CC1", "read-out": "EC50", "result": ">100 µg/mL"}